Reference: patent US20230128969A1, “POLYURETHANE FOAM COMPOSITIONS WITH ANTIMICROBIAL PROPERTIES” (SANITIZED AG, priority 2020, published 2023)

Assay: Evaluation of foam or coating quality (quality marks)
Parameters: key: 0: no foam or coating formed; +: very bad or collapsed foam; very defective coating; ++: bad foam quality; defective coating; +++: mediocre foam or coating quality; ++++: good foam or coating quality; +++++: comparable quality with reference foam or coating
Details: for Quality at given amount of (C) in pbw: pbw of commercial product (active content in label)
[1] = memory foam A1, 0.2 pbw (B) with 0.5 pbw (C) dimethyltetradecyl(3-(trimethoxysilyl)propyl)ammonium chloride, (E) Diglyme 0.8 pbw

Compound	Quality at given amount of (C) in pbw (memory foam A1, 0.25 pbw (C))	Quality at given amount of (C) in pbw (memory foam A1, 0.5 pbw (C))	Quality at given amount of (C) in pbw (memory foam A1, 1 pbw (C))	Quality at given amount of (C) in pbw (memory foam A1, 2 pbw (C))	Quality at given amount of (C) in pbw (memory foam A1, 4 pbw (C))	Q (foam quality) (memory foam A2, 0.25 pbw (C))	Q (foam quality) (memory foam A2, 0.5 pbw (C))	Q (foam quality) (memory foam A2, 1 pbw (C))	Q (foam quality) (memory foam A2, 2 pbw (C))	Q (foam quality) (memory foam A2, 4 pbw (C))	Q (foam quality) [1]	Quality at given amount of (C) in pbw (memory foam A1, 8 pbw (C))	Q (foam quality) (memory foam A2, 8 pbw (C))	Q (foam quality) (memory foam A1, 0.5 pbw (B) with 0.5 pbw (C) dimethyltetradecyl(3-(trimethoxysilyl)propyl)ammonium chloride, (E) Arcol Polyol 1108 0.5 pbw)
CCCCCCCCCCCCCC[N+](C)(C)C.[Cl-] [myristyltrimethylammonium chloride]	+++++	+++++	++++	++++	++	+++++	+++++	++++	++++	++				
O=C(O)CN(CC(=O)O)CC(=O)O [Nitrilotriacetic acid]											+			
O=C(O)CC(O)(CC(=O)O)C(=O)O [Citric acid]											+			
CCCCCCCCCCCCN(CCCN)CCCN [laurylamine dipropylenediamine]	+++++	++++	++++	+++	+	++++	++++	++++	+++	+				
C8-C18-alkyldimethylbenzyl ammonium chloride	+++++	+++++	+++++	++++	++++	+++++	+++++	++++	++++	++++		+	+	
O.O.O=C([O-])CN(CCN(CC(=O)O)CC(=O)O)CC(=O)[O-].[Na+].[Na+] [disodium EDTA dihydrate, Disodium EDTA dihydrate]											++++			
CCCCCCCCCCC(=O)O [Undecanoic acid]														++++
